Experimental data published in PMC7038234, “Screening of Natural Extracts for Inhibitors against Japanese Encephalitis Virus Infection” (Antimicrobial Agents and Chemotherapy, 2020).

What follows are compounds tested on JEV strain AT31. Conditions: Primary screening of 1034 compounds in the natural extracts library.
With `O=c1c(O[C@@H]2OC[C@@H](O)[C@H](O)[C@H]2O)c(-c2ccc(O)c(O)c2)oc2cc(O)cc(O)c12` [Quercetin 3-O-β-D-xylopyranoside] the “Inhibition (%)” value was -8.981%. `C[C@@H]1O[C@@H](O[C@H]2[C@H](O[C@H]3[C@H](O[C@H]4CC[C@]5(C)[C@H]6CC=C7[C@@H]8CC(C)(C)CC[C@]8(C(=O)O)CC[C@@]7(C)[C@]6(C)CC[C@H]5C4(C)C)OC[C@H](O)[C@@H]3O)O[C@H](CO)[C@@H](O)[C@@H]2O)[C@H](O)[C@H](O)[C@H]1O` [Raddeanin A] was tested, and the “Inhibition (%)” value was 21.1914%. In the case of `COc1ccc(/C=C/c2cc(O)cc(O[C@@H]3O[C@H](CO)[C@@H](O)[C@H](O)[C@H]3O)c2)cc1O` [Rhaponticin], the “Inhibition (%)” value is reported as 78.3102%. With `COc1ccc(/C=C/c2cc(O)cc(O)c2)cc1O[C@@H]1O[C@H](CO)[C@@H](O)[C@H](O)[C@H]1O` [Rhapontigenin 3'-O-glucoside] the “Inhibition (%)” value was 38.2315%. With `O=C(O)c1cc(O)c2c(c1)C(=O)c1cccc(O[C@@H]3O[C@H](CO)[C@@H](O)[C@H](O)[C@H]3O)c1C2=O` [Rhein-8-O-β-D-glucopyranoside] the “Inhibition (%)” value was 11.2742%. For `OCC1OC(OCC2OC(OC3OC=CC4C(O)C5OC5(CO)C34)C(O)C(O)C2O)C(O)C(O)C1O` (centres unmarked) [Rhmannioside A], the “Inhibition (%)” value was -0.8784%. In the case of `C[C@H]1O[C@@H](O[C@H]2CC[C@@]3(C)[C@@H](CC[C@]4(C)[C@@H]3C=CC3=C5CC(C)(C)CC[C@]5(CO)[C@@H](O)C[C@]34C)[C@]2(C)CO)[C@H](O)[C@@H](O[C@@H]2O[C@H](CO)[C@@H](O)[C@H](O)[C@H]2O)[C@H]1O` [Saikosaponin B1], the “Inhibition (%)” value is reported as -4.468%. In the case of `C[n+]1cc2c3c(ccc2c2ccc4cc5c(cc4c21)OCO5)OCO3.O=C([O-])CC(O)(CC(=O)O)C(=O)O` [Sanguinarine citrate], the “Inhibition (%)” value is reported as -65.5118%. `COc1cc2c(c(OC)c1OC)-c1c(cc(OC)c(OC)c1OC)C[C@@](C)(O)[C@@H](C)C2` [Schisandrol A] was tested, and the “Inhibition (%)” value was 39.0598%. For `COc1cc2c(c(OC)c1OC)-c1c(cc(OC)c(OC)c1OC)C[C@](C)(O)[C@@H](C)C2` [Schizandrol A], the “Inhibition (%)” value was 39.8936%. With `COc1ccc(-c2cc(=O)c3c(O)cc(O)c(-c4cc(-c5cc(=O)c6c(O)cc(OC)cc6o5)ccc4OC)c3o2)cc1` [Sciadopitysin] the “Inhibition (%)” value was 7.587%. For `Cc1cc(=O)c2c(O)c3c(cc2o1)OC(C)(C)[C@@H](O[C@@H]1O[C@H](CO)[C@@H](O)[C@H](O)[C@H]1O)C3` [Sec-O-Glucosylhamaudol], the “Inhibition (%)” value was -3.913%. With `COc1cc(C[C@@H](CO[C@@H]2O[C@H](CO)[C@@H](O)[C@H](O)[C@H]2O)[C@H](CO[C@@H]2O[C@H](CO)[C@@H](O)[C@H](O)[C@H]2O)Cc2ccc(O)c(OC)c2)ccc1O` [Secoisolariciresinol Diglucoside] the “Inhibition (%)” value was 16.7236%. With `CCCC[C@@H]1OC(=O)C2=C1CCC=C2` [Senkyunolide A] the “Inhibition (%)” value was 6.997%. With `CCC/C=C1\OC(=O)C2=C1CC[C@@H](O)[C@@H]2O` [Senkyunolide I] the “Inhibition (%)” value was 4.329%. `COC(=O)C1=CO[C@@H](O[C@@H]2O[C@H](CO)[C@@H](O)[C@H](O)[C@H]2O)[C@@H]2[C@@]3(C)O[C@H]3[C@@H](O)[C@]12O` [Sesamoside] was tested, and the “Inhibition (%)” value was 35.8327%. In the case of `COc1cc(/C=C/C(=O)OCC[N+](C)(C)C)cc(OC)c1O.N#C[S-]` [Sinapine thiocyanate], the “Inhibition (%)” value is reported as -6.947%. With `COC1=C[C@@H]2[C@@H]3Cc4ccc(OC)c(O)c4[C@]2(CCN3C)CC1=O.Cl` [Sinomenine hydrochloride] the “Inhibition (%)” value was 90.727%. In the case of `O=C([O-])C1C2CCC(O2)C1C(=O)[O-].[Na+].[Na+]` (centres unmarked) [Sodium Demethylcantharidate], the “Inhibition (%)” value is reported as -19.8805%. `COc1cc(/C=C/C(=O)[O-])ccc1O.[Na+]` [Sodium ferulic] was tested, and the “Inhibition (%)” value was -3.411%. With `CCCCCCCCCCCC(=O)CC(O)S(=O)(=O)[O-].[Na+]` (centres unmarked) [Sodium new houttuyfonate] the “Inhibition (%)” value was 43.6171%. `C[N+]1(C)CCC[C@H]1C(=O)[O-].Cl` [Stachydrine hydrochloride] was tested, and the “Inhibition (%)” value was 7.898%. `C[N+]1(C)CCC[C@H]1C(=O)[O-]` [Stachydrine] was tested, and the “Inhibition (%)” value was -5.7732%. `C=C1C[C@@]23CC[C@H]4[C@@](C)(CCC[C@@]4(C)C(=O)O)[C@@H]2CC[C@]1(O[C@@H]1O[C@H](CO)[C@@H](O)[C@H](O)[C@H]1O[C@@H]1O[C@H](CO)[C@@H](O)[C@H](O)[C@H]1O)C3` [Steviolbioside] was tested, and the “Inhibition (%)” value was -6.88%. With `O=C(O)c1cc(S(=O)(=O)O)ccc1O` [Sulfosalicylic Acid] the “Inhibition (%)” value was -4.884%. `CCC(C)C(=O)O[C@@H]1[C@@H](OC(C)=O)[C@]2(C)[C@H](C(C)=O)CC[C@@]23O[C@]32CC[C@H]3C[C@@H](O[C@H]4C[C@@H](OC)[C@H](O[C@@H]5O[C@H](C)[C@@H](O)[C@@H](OC)[C@H]5O)[C@@H](C)O4)CC[C@]3(C)[C@@H]12` (some centres unmarked) [Tenacissoside H] was tested, and the “Inhibition (%)” value was 29.027%. In the case of `COc1cc(CCC(=O)CC(=O)CCc2ccc(O)c(OC)c2)ccc1O` [Tetrahydrocucumin], the “Inhibition (%)” value is reported as -6.898%. For `CCC/C=C1\OC(=O)C2=C[C@H]3CC[C@]21[C@]1(OC(=O)C2=C1CCC=C2)[C@@H]3CCC` [Tokinolide B], the “Inhibition (%)” value was -27.7272%. For `CCCCCCCCCCCCCC(=O)OCC(COC(=O)CCCCCCCCCCCCC)OC(=O)CCCCCCCCCCCCC` [Tritetradecanoin], the “Inhibition (%)” value was -15.9133%. `CC1OC2OC3C(OCC(O)C3O)OC(=O)C34CCC(C)(C)CC3C3=CCC5C6(C)CC(O)C(OC7OC(CO)C(O)C(O)C7OC7OCC(OC(=O)CC(C)(O)CC(=O)OC1C(OC1OCC(O)C(O)C1O)C2O)C(O)C7O)C(C)(CO)C6CCC5(C)C3(C)CC4O` (centres unmarked) [TubeiMoside II] was tested, and the “Inhibition (%)” value was -2.287%. With `C=C1[C@H](OC(=O)/C=C(\C)CC)C[C@@H](C(C)C)[C@@H]2[C@@H]([C@@H](C)OC(C)=O)C(=O)C[C@@H]12` [Tussilagone] the “Inhibition (%)” value was 18.2489%. With `O=c1cc(-c2ccc(O[C@@H]3O[C@H](CO)[C@@H](O)[C@H](O)[C@H]3O)cc2)oc2cc(O)c([C@@H]3O[C@H](CO)[C@@H](O)[C@H](O)[C@H]3O[C@@H]3OC[C@H](O)[C@H](O)[C@H]3O)c(O)c12` [Vaccarin] the “Inhibition (%)” value was 1.877%. With `COc1ccc(-c2oc3cc(OC)c(OC)c(O)c3c(=O)c2OC)cc1O` [Vitexicarpin] the “Inhibition (%)” value was 34.179%. In the case of `COc1c(O[C@@H]2O[C@H](C(=O)O)[C@@H](O)[C@H](O)[C@H]2O)cc(O)c2c(=O)cc(-c3ccccc3)oc12` [Wogonoside], the “Inhibition (%)” value is reported as -2.571%. In the case of `O=c1ccc2cc3ccoc3c(O)c2o1` [Xanthotol], the “Inhibition (%)” value is reported as 2.061%. With `CCN1C[C@]2(COC)[C@H](O)C[C@H](OC)[C@]34C1[C@H]([C@H](OC)[C@H]23)[C@@]1(OC(C)=O)C[C@H](OC)[C@@]2(O)C[C@@H]4[C@@H]1[C@H]2OC(=O)c1ccc(OC)cc1` [Yunaconitine;Guayewuanine B] the “Inhibition (%)” value was -5.863%. With `CC(C)(O[C@@H]1O[C@H](CO)[C@@H](O)[C@H](O)[C@H]1O)[C@@H]1CC[C@](O)(CO)[C@H]2CC(=O)[C@@](C)(O)[C@@H]2C1` [atractyloside A] the “Inhibition (%)” value was 11.6079%. In the case of `CC(=O)OC1CC2CCC1(C)C2(C)C` (centres unmarked) [bomyl acetate], the “Inhibition (%)” value is reported as 3.447%. With `CCCCCCCC/C=C\CCCCCCCC(=O)O` [cis-9-Octadecenoic acid] the “Inhibition (%)” value was 10.1533%. For `COC(=O)C1=CO[C@@H](O[C@@H]2O[C@H](CO)[C@@H](O)[C@H](O)[C@H]2O)[C@H]2[C@@H]1C(=O)C[C@@H]2C` [cornin], the “Inhibition (%)” value was 2.878%. `OC[C@@H](O)[C@H](O)[C@H](O)[C@@H](O)CO` [ducitol] was tested, and the “Inhibition (%)” value was 15.4889%. For `COC(=O)C1=CO[C@@H](O[C@@H]2O[C@H](CO[C@@H]3O[C@H](CO)[C@@H](O)[C@H](O)[C@H]3O)[C@@H](O)[C@H](O)[C@H]2O)[C@@H]2C(CO)=CC[C@H]12` [genipin-1-b-D-gentiobioside], the “Inhibition (%)” value was 15.496%. In the case of `CC(C)=CC1CC(O)(C2CCC3(C)C2CCC2C4(C=O)CCC(OC5OCC(O)C(OC6OCC(O)C(O)C6O)C5OC5OC(C)C(O)C(O)C5O)C(C)(C)C4CCC23C)C(O)O1` (centres unmarked) [gypenoside A], the “Inhibition (%)” value is reported as 12.9654%. In the case of `COc1cc(O)c2c(=O)cc(-c3ccc(O)c(O)c3)oc2c1` [hydroxygenkwanin], the “Inhibition (%)” value is reported as -28.1662%. `O=c1c2ccccc2ncn1CC1(O)C[C@@H]2NCCC[C@@H]2O1` (some centres unmarked) [isofebrifugin] was tested, and the “Inhibition (%)” value was 51.0321%. In the case of `C=C1C[C@]2(O)O[C@@]3(CC2=C(C)C)[C@@H](C)CC[C@@H]13` [isourecumenol], the “Inhibition (%)” value is reported as 3.754%. `C=C(C)[C@@H]1CC=C(C=O)CC1` [l-Perillaldehyde] was tested, and the “Inhibition (%)” value was 9.294%. For `O=C(/C=C/c1ccc(O)cc1)c1ccc(O[C@@H]2O[C@H](CO)[C@@H](O)[C@H](O)[C@H]2O)cc1O` [neoisoliquritin], the “Inhibition (%)” value was 41.9799%. `O=C1CCCC2C3CCC[N+]4([O-])CCCC(CN12)C34` (centres unmarked) [oxysophoridine] was tested, and the “Inhibition (%)” value was 30.3663%. With `CC1=C(C(=O)O)C(C)(C)CC[C@H]1O[C@@H]1O[C@H](CO)[C@@H](O)[C@H](O)[C@H]1O` [rehmapicroside] the “Inhibition (%)” value was -4.503%. For `COc1ccc(-c2cc(=O)c3c(OC)c(OC)c(OC)c(OC)c3o2)cc1` [tangeratin], the “Inhibition (%)” value was 13.3654%.

Same assay, conditions: primary screening of 1034 compounds in the natural extracts library; red numbers = obvious cytotoxicity, blue numbers = insoluble in DMSO (colours not visible)
In the case of `CC(C)=CCc1c(-c2ccc(O)cc2O)oc2c([C@H]3C=C(C)C[C@@H](c4ccc(O)cc4O)[C@@H]3C(=O)c3ccc(O)cc3O)c(O)cc(O)c2c1=O` [kuwanon G], the “Inhibition (%)” value is reported as 76.3133%. With `C[C@@H]1O[C@@H](OC[C@H]2O[C@@H](Oc3cc(O)c4c(=O)cc(-c5ccc(O)cc5)oc4c3)[C@H](O[C@@H]3O[C@@H](C)[C@H](O)[C@@H](O)[C@H]3O)[C@@H](O)[C@@H]2O)[C@H](O)[C@H](O)[C@H]1O` [ligustroflavone] the “Inhibition (%)” value was 16.4909%. `CC1CCC(C(C)C)C(O)C1` (centres unmarked) [menthol] was tested, and the “Inhibition (%)” value was 4.292%. `O=C(O)/C=C/c1ccc(O)cc1` [p-Coumaric] was tested, and the “Inhibition (%)” value was -9.857%. In the case of `O=Cc1ccc(O)c(O)c1` [protocatechuicaldehyde], the “Inhibition (%)” value is reported as 7.9473%. For `COC1=C(C)C(=O)O/C1=C1\O[C@@H]2CCCN3[C@@H](CC[C@H]3[C@@H]3C[C@H](C)C(=O)O3)[C@H]2[C@@H]1C` [protostemonine], the “Inhibition (%)” value was -19.6444%. With `CC(C)=CCc1cc2c(cc1O)oc(=O)c1c3ccc(O)cc3oc21` [psoralidin] the “Inhibition (%)” value was 55.5877%. In the case of `O=c1ccc2ccc(O)cc2o1` [umbelliferone (7-Hydroxycoumarin)], the “Inhibition (%)” value is reported as 9.245%.
